A mixed list of measured activities; the numbers were collected in NIAID ChemDB.

Common to all: toxicity to cultured cells; cells: MT-2; endpoint: CC50

CCn is the concentration with n% toxicity to the cells.

OC1(Cc2ccccc2Cl)c2cc(Cl)c(Cl)cc2C2=NCCN21 ; method: propidium iodide ; result: 30.1 µM
CCOC(=O)Cc1c(C)nn(CC(=O)N[C@@H](Cc2ccccc2)C(=O)N(C)c2ccc3c(c2)OCO3)c1C1CC1 ; method: ATP ; result: >20 µM
COc1ccc(C[C@H](C[C@H](O)[C@H](Cc2ccccc2)NC(=O)OC(C)(C)C)C(=O)N[C@H](C(=O)N[C@@H](Cc2ccccc2)C(=O)N2CCOCC2)C(C)C)cc1 ; result: >100 µM
CCC(C(=O)N[C@@H](Cc1ccccc1)C(=O)N(C)c1ccc2c(c1)OCO2)n1nc(C2CC2)c(CCO)c1C ; method: ATP ; result: >20 µM
O=C(C(=O)N1CCN(C(=O)c2ccccc2)CC1)c1c[nH]c2cccc(F)c12 ; method: XTT ; result: >10 µM
O=P(CCP(c1ccccc1)c1ccccc1)(c1ccccc1)c1ccccc1 ; result: 5.97 µg/mL
Nc1ccc(C2SCC(=O)N2c2ccc(Cl)cc2)cc1 ; method: MTT ; result: ≥154.6 µM
N#C/C=C/c1cccc(Oc2ccc(C#N)cc2OCCn2ccc(=O)[nH]c2=O)c1 ; result: >90 µM
O=C(C(=O)N1CCN(C(=O)c2ccccc2)CC1)c1c[nH]c2cccc(Cl)c12 ; method: XTT ; result: >10 µM
O=C1O/C(=C\c2ccccc2)c2cc(Cl)c(Cl)cc21 ; method: propidium iodide ; result: >171 µM
COc1ccc(C2SCC(=O)N2c2ccc(S(N)(=O)=O)cc2)cc1 ; method: MTT ; result: ≥182 µM
CNC(=O)NC[C@H]1O[C@@H](n2cnc3c(NC(=O)Nc4ccccc4)ncnc32)[C@H](O[Si](C)(C)C(C)(C)C)[C@@H]1CC(=O)N(C)OC ; method: neutral red ; result: 22.6 µM
COc1cc(OC)c2ccc(-c3cccc([N+](=O)[O-])c3)nc2c1 ; method: MTT ; result: 103 µM
C[Si](C)(CCCn1ccc2ccccc21)O[Si](C)(C)CCCn1ccc2ccccc21 ; result: 14 µM
C=CCN(C(=O)[C@H](Cc1cc(F)cc(F)c1)NS(=O)(=O)CCCS(=O)(=O)N[C@@H](Cc1cc(F)cc(F)c1)C(=O)N(CC=C)c1ccc(OC)cc1)c1ccc(OC)cc1 ; method: XTT ; result: 100 µM
C=C1CC[C@@H](OC(C)=O)[C@@]2(C)C[C@@H](OC(C)=O)C3=C(C(C)C)CC[C@]3(C)C[C@]12O ; method: MTT ; result: 1910 µM
N#Cc1cc(Cl)cc(Oc2ccc(Cl)cc2OCCn2ccc(=O)[nH]c2=O)c1 ; result: >100 µM
Cc1ccccc1S(=O)(=O)NC(=O)NC(Cc1ccccc1)c1ncn(C)c1-c1ccc2c(c1)CCO2 ; method: XTT / absorbance ; result: >100 µM
CC[C@H](C)[C@H](NC(=O)c1ccccc1SSc1ccccc1C(=O)N[C@H](C(=O)O)[C@@H](C)CC)C(=O)O ; result: 123 µM
O=C1O/C(=C\c2ccccc2Cl)c2cc(Cl)c(Cl)cc21 ; method: propidium iodide ; result: >153 µM
CCN(C(=O)[C@H](Cc1cc(F)cc(F)c1)NC(=O)CN1c2ccccc2N(CC(=O)N[C@@H](Cc2cc(F)cc(F)c2)C(=O)N(CC)c2ccc(NC(=O)OC)cc2)S1(=O)=O)c1ccc(NC(=O)OC)cc1 ; method: XTT ; result: 100 µM
COc1ccc(Cc2nn(C)c(=O)c3ccccc23)cc1OC ; method: propidium iodide ; result: 158 µM
Cc1ccc2c(c1)[C@@H](N1CCCC1=O)C[C@@H](c1cccc([N+](=O)[O-])c1)N2 ; method: MTT ; result: >50 µM
Cc1cccc(N2C(=O)CSC2c2ccccn2)n1 ; method: MTT ; result: >16 µM
COC(=O)Nc1ccc(-n2ccnc2[C@H](Cc2ccccc2)NC(=O)NS(=O)(=O)c2ccccc2F)cc1 ; method: XTT / absorbance ; result: >100 µM
COc1ccc(N(CCF)C(=O)[C@H](Cc2cc(F)cc(F)c2)NC(=O)CN2c3ccccc3N(CC(=O)N[C@@H](Cc3cc(F)cc(F)c3)C(=O)N(CCF)c3ccc(OC)cc3)S2(=O)=O)cc1 ; method: XTT ; result: 100 µM
O=C1CSC(c2c(Cl)cccc2Cl)N1CCc1ccccc1 ; method: MTT ; result: >228 µM
C[Si](C)(CCCSc1nc2cc(Cl)ccc2s1)O[Si](C)(C)CCCSc1nc2cc(Cl)ccc2s1 ; result: 24 µM
N#Cc1ccc(Oc2cc(Cl)ccc2Cl)c(OCCn2ccc(=O)[nH]c2=O)c1 ; result: 59 µM
CC(C)=CCOc1cc(NC(=S)c2ccoc2C)ccc1Cl ; result: >30 µM
Nc1cccc([C@@H]2C[C@H](N3CCCC3=O)c3ccccc3N2)c1 ; method: MTT ; result: >50 µM
Cc1[nH]c2ccccc2c1C(=O)C(=O)N1CCN(C(=O)c2ccccc2)CC1 ; method: XTT ; result: >10 µM
Cc1nn(CCO)c(C(C)C)c1CC(=O)N[C@@H](Cc1ccccc1)C(=O)N(C)c1ccc2c(c1)OCO2 ; method: ATP ; result: >20 µM
CNC(=O)c1c(O)c2ncc(Cc3ccc(F)cc3)c3c2n(c1=O)C[C@](C)(c1nnc(C)o1)O3 ; result: 5.3 µM
Cc1cc(C(F)(F)F)nn1CC(=O)N[C@@H](Cc1ccccc1)C(=O)N(C)c1ccc2c(c1)OCO2 ; method: ATP ; result: >20 µM
COc1ccc(N(C)C(=O)C(Cc2ccccc2)NC(=O)c2cccc(C(=O)N[C@H](Cc3ccccc3)C(=O)N(C)c3ccc(OC)cc3)c2)cc1 ; method: XTT ; result: 3.7 µM
Cc1c(CC(=O)O)c(C(C)C)nn1CC(=O)N[C@@H](Cc1ccccc1)C(=O)N(C)c1ccc2c(c1)OCO2 ; method: ATP ; result: >20 µM
Cc1cccc2c(C(=O)C(=O)N3CCN(C(=O)c4ccccc4)CC3)c[nH]c12 ; method: XTT ; result: >10 µM
COc1cc2c(c(OC)c1)[C@@H](N1CCCC1=O)C[C@@H](c1cccc([N+](=O)[O-])c1)N2 ; method: ATP ; result: >126 µM
CCOC(=O)C[C@H]1[C@@H](O[Si](C)(C)C(C)(C)C)[C@H](n2cnc3c(NC(=O)Nc4ccccc4)ncnc32)O[C@@H]1CNC(=O)NC ; method: neutral red ; result: 37.8 µM
O=C(C(=O)N1CCN(C(=O)c2cccc(Br)c2)CC1)c1c[nH]c2ccccc12 ; method: XTT ; result: >10 µM
Cc1cn([C@H]2C=C[C@@H](CO)O2)c(=O)[nH]c1=O ; result: >100 µM
C=CCN(C(=O)[C@H](Cc1cc(F)cc(F)c1)NC(=O)c1ccc(F)c(C(=O)N[C@@H](Cc2cc(F)cc(F)c2)C(=O)N(CC=C)c2ccc(OC)cc2)c1)c1ccc(OC)cc1 ; method: XTT ; result: 33.3 µM
Cc1c(-c2c([C@H](OC(C)(C)C)C(=O)O)cnc3ccccc23)cc(F)c2c1CCCO2 ; result: 88 µM
Cc1nnc(-c2ccc3c(=O)n(-c4ccc(Cl)c5c(NS(C)(=O)=O)nn(CC(F)(F)F)c45)c([C@H](Cc4cc(F)cc(F)c4)NC(=O)Cn4nc(C(F)F)c5c4C(F)(F)[C@@H]4C[C@H]54)nc3c2)nc1C ; method: XTT ; result: >0.5 µM
CSc1ccc(Cc2n[nH]c(=O)c3ccccc23)cc1 ; method: propidium iodide ; result: >177 µM
CCC(OCCc1c(C2CC2)n[nH]c1C)C(=O)N[C@@H](Cc1ccccc1)C(=O)N(C)c1ccc2c(c1)OCO2 ; method: ATP ; result: >20 µM
[N-]=[N+]=NC[C@H]1O[C@@H](n2cnc3c(N)ncnc32)[C@H](O)[C@@H]1CC(=O)O ; method: neutral red ; result: 175 µM
Nc1cccc([C@@H]2C[C@H](N3CCCC3=O)c3cc(I)ccc3N2)c1 ; method: ATP ; result: >115 µM
O=C(C(=O)N1CCN(C(=O)c2cccc(Cl)c2F)CC1)c1c[nH]c2ccccc12 ; method: XTT ; result: >10 µM
C=CCN(C(=O)[C@H](Cc1cc(F)cc(F)c1)NS(=O)(=O)c1cccc(S(=O)(=O)N[C@@H](Cc2cc(F)cc(F)c2)C(=O)N(CC=C)c2ccc(OC)cc2)c1)c1ccc(OC)cc1 ; method: XTT ; result: 100 µM
COc1ccc2nc(-c3cccc(N)c3)ccc2c1 ; method: ATP ; result: 109 µM
CCN(C(=O)[C@H](Cc1cc(F)cc(F)c1)NC(=O)CN1c2ccccc2N(CC(=O)N[C@@H](Cc2cc(F)cc(F)c2)C(=O)N(CC)c2ccc(OC(F)F)cc2)S1(=O)=O)c1ccc(OC(F)F)cc1 ; method: XTT ; result: 100 µM
CCCCn1nc(Cc2ccc(OC)cc2)c2ccccc2c1=O ; method: propidium iodide ; result: 74.1 µM
Cc1cn(CCC[Si](C)(O)c2ccccc2)c(=O)[nH]c1=O ; result: 50 µM
COc1ccc(-c2c(C(Cc3ccccc3)NC(=O)NS(=O)(=O)c3ccccc3C)ncn2C)cc1 ; method: XTT / absorbance ; result: >100 µM
C[Si](O)(CCCn1cnc2c(N)ncnc21)c1ccccc1 ; result: 12 µM
Cc1c(CCO)c(C2CC2)nn1CC(=O)N[C@@H](Cc1ccccc1)C(=O)N(C)c1ccc2c(c1)OCO2 ; method: ATP ; result: >20 µM

A second listing of 6 rows from above:

Cc1nn(CCO)c(C(C)C)c1CC(=O)N[C@@H](Cc1ccccc1)C(=O)N(C)c1ccc2c(c1)OCO2 ; method: ATP ; result: >20 µM
C[Si](C)(CCCSc1nc2cc(Cl)ccc2s1)O[Si](C)(C)CCCSc1nc2cc(Cl)ccc2s1 ; result: 24 µM
CCCCn1nc(Cc2ccc(OC)cc2)c2ccccc2c1=O ; method: propidium iodide ; result: 74.1 µM
Cc1cc(C(F)(F)F)nn1CC(=O)N[C@@H](Cc1ccccc1)C(=O)N(C)c1ccc2c(c1)OCO2 ; method: ATP ; result: >20 µM
CCN(C(=O)[C@H](Cc1cc(F)cc(F)c1)NC(=O)CN1c2ccccc2N(CC(=O)N[C@@H](Cc2cc(F)cc(F)c2)C(=O)N(CC)c2ccc(OC(F)F)cc2)S1(=O)=O)c1ccc(OC(F)F)cc1 ; method: XTT ; result: 100 µM
N#Cc1cc(Cl)cc(Oc2ccc(Cl)cc2OCCn2ccc(=O)[nH]c2=O)c1 ; result: >100 µM

Conditions beyond the fields shown may differ between rows.